{"source": "ChEMBL document CHEMBL1143047", "about": "“Aminoglycoside antibiotic derivatives: preparation and evaluation of toxicity on cochlea and vestibular tissues and antimicrobial activity” (Bioorg Med Chem, 2007)", "type_in_all_cases": "functional, organism-based", "key": {"Staphylococcus aureus": {"system": "Staphylococcus aureus", "experiment": "Antimicrobial activity against Staphylococcus aureus ATCC 6538 at 15 mg/ml after 24 hrs by micro dilution method", "summary_of_the_method": "(§1)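 Broth microdilution with about 5 × 10^4 CFU/mL per well. Compounds were dissolved in sterile water or in 10% DMSO/water and tested at 15 mg/mL in duplicate. Incubation was 24 h at 35 °C. Growth was scored qualitatively by medium turbidity (growth or no growth) against an inoculated-medium positive control and a medium-only negative control.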"}, "[1]": {"system": "Staphylococcus epidermidis", "experiment": "Antimicrobial activity against Staphylococcus epidermidis ATCC 12228 at 15 mg/ml after 24 hrs by micro dilution method", "summary_of_the_method": "as §1"}, "Escherichia coli": {"system": "Escherichia coli", "experiment": "Antimicrobial activity against Escherichia coli ATCC 25922 at 15 mg/ml after 24 hrs by micro dilution method", "summary_of_the_method": "as §1"}, "Pseudomonas aeruginosa": {"system": "Pseudomonas aeruginosa", "experiment": "Antimicrobial activity against Pseudomonas aeruginosa ATCC 27853 at 15 mg/ml after 24 hrs by micro dilution method", "summary_of_the_method": "as §1"}}, "note": "Calls of active or inactive are those of the source. The rule behind the calls is not given here.", "data": [{"smiles": "[N-]=[N+]=NC[C@H]1O[C@H](O[C@@H]2[C@@H](O)[C@H](O)[C@@H](N=[N+]=[N-])C[C@H]2N=[N+]=[N-])[C@H](N=[N+]=[N-])[C@@H](O)[C@@H]1O", "values": [{"measurement": "Activity", "setting": "Staphylococcus aureus", "result": "Active"}, {"measurement": "Activity", "setting": "[1]", "result": "Active"}, {"measurement": "Activity", "setting": "Escherichia coli", "result": "inactive"}, {"measurement": "Activity", "setting": "Pseudomonas aeruginosa", "result": "Active"}]}]}
